The values that follow come from patent publication US6346529B1, “Antiviral therapy using thiazine dyes” (Oklahoma Medical Research Foundation, priority 1988, dated 2002).

Series [1] is described as follows: CEM cell proliferation (cytotoxicity) assay. The format is cell-based. The conditions noted are these: human, CEM cells. As for the experimental part: (§1) PBM and CEM Cells Proliferation Assay: The drugs were evaluated for their potential toxic effects on uninfected PHA-stimulated human PBM cells and also in CEM cells. The cells were cultured with and without drug for 6 days at which time aliquots were counted for cell viability as described above.

Series [2] can be described thus: Toxicity in Vero cells. Format: cell-based. The following applies: African green monkey, day three, read-out: Cytotoxicity: IC50 Vero. As for the experimental part:
Toxicity in Vero (African Green Monkey) Cells: […] The cells dislodged from the flask were generally in clumps and were dispersed by repeated forceful pipetting of the suspension against the surface of the flask. To 1 ml of the well-dispersed cell suspension, 0.2 ml of trypan blue solution was added, and the number of cells were counted using a hemacytomer. Each day for the next 3 days, two of the remaining flasks were harvested in the manner just described for determination of cell number. Only data on day three are presented. This method has previously been described by Schinazi, et al., “Effect of Combination of Acyclovir, and Vidarabine or its 5′-monophosphate on Herpes Simplex Viruses in Cell Culture and in Mice,” Antimicrob. Agents Chemother. 22, 499-507 (1982)).

A short description of series [3]: PBM cell proliferation (cytotoxicity) assay. The format is cell-based. The following applies: human, uninfected PHA-stimulated human PBM cells, read-out: Cytotoxicity: IC50 PBMC. As for the experimental part:
as §1

The conditions of series [4]: cited from earlier work.

Read-outs that look alike come from different tables or passages of the source.

By IC50 is commonly meant the concentration needed to halve the response being measured. As for `CN(C)c1ccc2nc3ccc(N(C)C)cc3[s+]c2c1.[Cl-]` [MB, 3,7-Bis(dimethylamino)phenothiazin-5-ium chloride], the half-maximal inhibitory concentration (IC50) at 6 days was 2.22 µM in series [1] (dark), 0.12 µM in series [1] (light), more than 1 µM in series [3] (dark) and 6.1 µM in series [3] (light). Also, the IC50 at 3 days in series [2] (dark) is 0.66 µM; in series [2] (light) it was 0.14 µM. Moreover, the side effects entry was “minimal side effects” in series [4] (adult humans, one week to 19 months, 100 mg b.i.d. or t.i.d. orally or 100 mg i.v.); “blue urine, occasional nausea, anemia and fever” in series [4] (recommended doses by mouth or i.v.).
